{
  "source": "patent US20260041660A1",
  "about": "(priority 2020, published 2026)",
  "origin": "cited, not measured here",
  "tested_on": "SARS-COV-2",
  "settings": "in vivo; cited from earlier work",
  "data": [
    {"substance": "IFNα2b: type I interferon, given as sprays", "values": [
      {"measurement": "infection rates of SARS-COV-2", "result": "can reduce infection rates"}
    ]}
  ]
}
